Assay results reported in patent US20140037648A1 (HUMABS BIOMED, published 2014).

By UniProt entry, the sequences of proteins in these tests, tags left out. Residues count along the entry.
UniProt P12568, 26-574: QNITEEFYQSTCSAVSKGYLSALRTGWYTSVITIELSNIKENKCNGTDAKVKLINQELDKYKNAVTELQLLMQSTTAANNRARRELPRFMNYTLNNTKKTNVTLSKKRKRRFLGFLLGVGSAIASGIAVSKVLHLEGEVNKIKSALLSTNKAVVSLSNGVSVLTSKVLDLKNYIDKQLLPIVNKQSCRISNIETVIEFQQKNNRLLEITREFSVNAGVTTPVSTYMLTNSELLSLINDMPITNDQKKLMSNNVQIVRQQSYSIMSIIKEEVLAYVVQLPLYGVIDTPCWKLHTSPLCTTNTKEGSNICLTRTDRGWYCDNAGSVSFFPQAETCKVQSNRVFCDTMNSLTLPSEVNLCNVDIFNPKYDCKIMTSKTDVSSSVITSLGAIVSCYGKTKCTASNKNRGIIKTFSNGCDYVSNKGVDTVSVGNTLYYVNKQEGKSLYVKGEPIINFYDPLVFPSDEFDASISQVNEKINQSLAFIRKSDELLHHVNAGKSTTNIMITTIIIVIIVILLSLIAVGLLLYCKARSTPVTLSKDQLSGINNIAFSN

Biological target: F protein of RSV Long (A, Maryland US, 1956; A/Long/56) (RSV (strain Long), UniProt P12568 26-574)
Assay: cell-based or functional assay

B1: Palivizumab (antibody, V domains shown)
VH: QVTLRESGPALVKPTQTLTLTCTFSGFSLSTSGMSVGWIRQPPGKALEWLADIWWDDKKDYNPSLKSRLTISKDTSKNQVVLKVTNMDPADTATYYCARSMITNWYFDVWGAGTTVTVSS
VL: DIQMTQSPSTLSASVGDRVTITCKCQLSVGYMHWYQQKPGKAPKLLIYDTSKLASGVPSRFSGSGSGTEFTLTISSLQPDDFATYYCFQGSGYPFTFGGGTKLEIK
Neutralization IC50: 0.599 µg/mL
